Compound potency records, mixed from different reports. Data source: NIAID ChemDB in PubChem.

All rows: tests in culture; agent: HIV-1; method: syncytia; measure: EC50

Rows are shuffled and stem from different studies.

O=C1Nc2cscc2S(=O)(=O)N1c1ccccc1Br ; strain or isolate: IIIB ; cell line: CEM ; value: >55.7 µM
Cc1cccc2c1OP(=O)(OCCOCn1cnc3c(=O)[nH]c(N)nc31)OC2 ; strain or isolate: IIIB ; cell line: CEM ; value: >50 µM
O=[N+]([O-])c1ccc(-n2ccc3cc([N+](=O)[O-])ccc32)cc1 ; strain or isolate: IIIB ; cell line: C8166 ; value: 2.93 µg/mL
Cc1ccnc2c1NC(=O)c1cccnc1N2C1CC1 ; strain or isolate: IIIB ; cell line: CEM ; mutations: RT-E138K ; value: 0.03 µM
O=C1N(Cc2ccccc2)c2cscc2S(=O)(=O)N1Cc1ccccc1 ; strain or isolate: IIIB ; cell line: CEM ; value: 1.8 µM
Nc1nc2c(ncn2COCCOP2(=O)OCc3ccccc3O2)c(=O)[nH]1 ; strain or isolate: IIIB ; cell line: CEM ; value: 22 µM
CCn1c(=O)c(C)cn([C@@H]2O[C@H](CO[Si](C)(C)C(C)(C)C)C3(OS(=O)(=O)C=C3N)[C@H]2O[Si](C)(C)C(C)(C)C)c1=O ; strain or isolate: HXB2 (RT E138A S162C E169D T200A L214F) Clinical isolate ; cell line: CEM ; mutations: RT-E138A S162C E169D T200A L214F ; value: 32.4 µM
Cc1ccc(S(=O)(=O)OC[C@H]2O[C@@H](n3cc(C)c(=O)n(C)c3=O)[C@H](O[Si](C)(C)C(C)(C)C)C23OS(=O)(=O)C=C3N)cc1 ; strain or isolate: IIIB ; cell line: CEM ; value: >6.2 µM
O=C(OC[C@H]1O[C@@H](OC(=O)c2cc(O)c(O)c(O)c2)[C@H](O)[C@@H](OC(=O)c2cc(O)c(O)c(O)c2)[C@@H]1O)c1cc(O)c(O)c(O)c1 ; strain or isolate: IIIB ; cell line: MOLT-3 ; value: <33 µg/mL
CCc1cc(NCc2nc3c(Cl)ccc(Cl)c3o2)c(=O)[nH]c1C ; strain or isolate: D34 ; cell line: PBL ; mutations: TIBO-resistant ; value: ~9 µM
Cc1cn([C@@H]2O[C@H](CO[Si](C)(C)C(C)(C)C)C3(OS(=O)(=O)C=C3N)[C@H]2O[Si](C)(C)C(C)(C)C)c(=O)n(C)c1=O ; strain or isolate: IIIB ; cell line: MT-4 ; value: 0.06 µM
COc1ccc2c(c1)COP(=O)(OC[C@@H]1C=C[C@H](n3cnc4c(NC5CC5)nc(N)nc43)C1)O2 ; strain or isolate: IIIB ; cell line: CEM ; value: 3.5 µM
CCN(/C=C/c1ccccc1Cl)C(C)=O ; strain or isolate: IIIB ; cell line: C8166 ; value: 91 µM
CC(=O)c1ccc(C)cc1NC(C(N)=O)c1c(Cl)cccc1Cl ; strain or isolate: HXB2 (RT E138A S162C E169D T200A L214F) Clinical isolate ; cell line: CEM ; mutations: RT-E138A S162C E169D T200A L214F ; value: 0.023 µM
Nc1nc(NC2CC2)c2ncn([C@H]3C=C[C@@H](CO)C3)c2n1 ; strain or isolate: IIIB ; cell line: CEM ; value: 5 µM
CC(=O)NC1=CS(=O)(=O)OC12[C@@H](COCc1ccccc1)O[C@@H](n1cc(C)c(=O)[nH]c1=O)[C@@H]2OC(C)=O ; strain or isolate: IIIB ; cell line: CEM ; value: >160 µM
OC[C@@H]1[C@@H](O)[C@H](O)[C@H]2[C@@H](O)CCN21 ; strain or isolate: GB8 ; cell line: JM ; value: 720 µM
CCN1C(=O)N(Cc2ccccc2)S(=O)(=O)c2cscc21 ; strain or isolate: IIIB ; cell line: CEM ; mutations: RT-Y181C ; value: >310 µM
Cc1cn([C@@H]2O[C@H](CO[Si](C)(C)C(C)(C)C)C3(OS(=O)(=O)C=C3N)[C@H]2O[Si](C)(C)C(C)(C)C)c(=O)n(C)c1=O ; strain or isolate: HXB2 (RT E138A S162C E169D T200A L214F) Clinical isolate ; cell line: CEM ; mutations: RT-E138A S162C E169D T200A L214F ; value: 0.662 µM
Cc1cn([C@@H]2O[C@H](CO[Si](C(C)(C)C)(C(C)(C)C)C(C)(C)C)C3(OS(=O)(=O)C=C3N)[C@H]2O[Si](C)(C)C(C)(C)C)c(=O)n(C)c1=O ; strain or isolate: IIIB ; cell line: CEM ; value: >12 µM
C#CCN1C(=O)N(Cc2ccccc2)S(=O)(=O)c2cscc21 ; strain or isolate: IIIB ; cell line: CEM ; mutations: RT-Y181C ; value: 36.1 µM
OC[C@@H]1[C@@H](O)[C@H](O)[C@H]2[C@H](O)CCN21 ; strain or isolate: GB8 ; cell line: JM ; value: 4.5 µM
Cc1cn([C@@H]2O[C@H](CO[Si](c3ccccc3)(c3ccccc3)C(C)(C)C)C3(OS(=O)(=O)C=C3N)[C@H]2O[Si](C)(C)C(C)(C)C)c(=O)n(C)c1=O ; strain or isolate: IIIB ; cell line: CEM ; value: >60 µM
CN1C(=O)N(Cc2ccccc2)S(=O)(=O)c2cscc21 ; cell line: CEM ; mutations: RT-V106A ; value: >324 µM
CC(=O)N(C)/C=C/c1ccccc1F ; strain or isolate: IIIB ; cell line: C8166 ; value: 130 µM
O=C1N(Cc2ccccc2)c2cscc2S(=O)(=O)N1Cc1ccccc1 ; strain or isolate: IIIB ; cell line: CEM ; mutations: RT-Y188H ; value: 7.8 µM
C=CCN(/C=C/c1ccccc1C)C(C)=O ; strain or isolate: IIIB ; cell line: C8166 ; value: 273 µM
OC[C@H]1[C@@H](O)[C@H](O)[C@H]2[C@@H](O)CCN21 ; strain or isolate: GB8 ; cell line: JM ; value: 70 µM
Cc1cn([C@@H]2O[C@H](CO[Si](C)(C)C(C)(C)C(C)C)C3(OS(=O)(=O)C=C3N)[C@H]2O[Si](C)(C)C(C)(C)C)c(=O)n(C)c1=O ; strain or isolate: IIIB ; cell line: MT-4 ; value: 2 µM
Cc1cn(-c2ccc([N+](=O)[O-])cc2)c2ccccc12 ; strain or isolate: IIIB ; cell line: C8166 ; value: 19.22 µg/mL
CC(=O)N(/C=C/c1ccccc1Br)Cc1c(F)cccc1F ; strain or isolate: IIIB ; cell line: C8166 ; value: 29 µM
CC(C)(C)[Si](C)(C)OC[C@H]1O[C@@H](n2cc(CBr)nn2)[C@H](O[Si](C)(C)C(C)(C)C)C12OS(=O)(=O)C=C2N ; strain or isolate: IIIB ; cell line: CEM ; value: 1.3 µM
N#CCN1C(=O)N(Cc2ccccc2)S(=O)(=O)c2cscc21 ; cell line: CEM ; mutations: RT-E138K ; value: 7.2 µM
Cc1cn([C@@H]2O[C@H](CO[Si](C)(C)C(C)(C)C)C3(OS(=O)(=O)C=C3N)[C@H]2O[Si](C)(C)C(C)(C)C)c(=O)n(CCOC(=O)[C@@H](N)C(C)C)c1=O ; strain or isolate: IIIB ; cell line: CEM ; value: 0.05 µM
CCNc1cccnc1N1CCN(C(=O)c2cc3cc(OC)ccc3[nH]2)CC1 ; strain or isolate: D34 ; cell line: PBL ; mutations: TIBO-resistant ; value: >100 µM
Cc1cn([C@@H]2O[C@H](CO[Si](C)(C)C(C)(C)C)[C@@]3(OS(=O)(=O)C=C3N)[C@H]2O[Si](C)(C)C(C)(C)C)c(=O)n(CC(=O)N[C@@H](CCC(=O)O)C(=O)O)c1=O ; strain or isolate: IIIB ; cell line: CEM ; value: 10 µM
Cc1cn([C@@H]2O[C@H](CO[Si](C)(C)C(C)(C)C)C3(OS(=O)(=O)C=C3N)[C@H]2O[Si](C)(C)C(C)(C)C(C)C)c(=O)n(C)c1=O ; strain or isolate: IIIB ; cell line: CEM ; value: 0.11 µM
CC1=C[C@H]([C@H](O)[C@H](C)[C@@H]2C[C@@H](O)[C@@]3(O)[C@H]4CC[C@@H]5C(C)(C)O[C@H]6CC(=O)O[C@]65C[C@]4(O)CC[C@@]23C)OC1=O ; strain or isolate: IIIB ; cell line: C8166 ; value: 7.71 µg/mL
CCN(/C=C/c1ccc(OC)cc1OC)C(C)=O ; strain or isolate: IIIB ; cell line: C8166 ; value: 19 µM
Cc1cn([C@@H]2O[C@H](CO[Si](C)(C)C(C)(C)C)C3(OS(=O)(=O)C=C3N)[C@H]2O[Si](C)(C)C(C)(C)C)c(=O)n(C)c1=O ; strain or isolate: IIIB ; cell line: CEM ; mutations: RT-V179D ; value: 0.097 ± 0.055 µM
CN1C(=O)N(Cc2ccccc2)S(=O)(=O)c2cscc21 ; strain or isolate: IIIB ; cell line: CEM ; mutations: RT-V106A ; value: >324 µM
CC(C)=CCOc1cc(NC(=S)c2ccoc2C)ccc1Cl ; strain or isolate: IIIB ; cell line: PBL ; value: 0.001 µg/mL
CCN1C(=O)N(Cc2ccccc2)S(=O)(=O)c2cscc21 ; cell line: CEM ; mutations: RT-Y181C ; value: >310.2 µM
Cc1cn([C@H]2C[C@H](N=[N+]=[N-])[C@@H](CO)O2)c(=O)[nH]c1=O ; strain or isolate: IIIB ; cell line: CEM ; value: 0.003 µM
N#CCN1C(=O)N(Cc2ccccc2)S(=O)(=O)c2cscc21 ; strain or isolate: IIIB ; cell line: CEM ; value: 1.2 µM
Nc1nc2c(ncn2[C@H]2C=C[C@@H](CO)C2)c(=O)[nH]1 ; strain or isolate: IIIB ; cell line: CEM ; value: 0.15 µM
N#Cc1ccccc1-n1ccc2ccccc21 ; strain or isolate: IIIB ; cell line: C8166 ; value: 82.28 µg/mL
Cc1ccnc2c1NC(=O)c1cccnc1N2C1CC1 ; strain or isolate: IIIB ; cell line: CEM ; mutations: RT-E138K ; value: 0.065 ± 0.007 µM

ECn is the concentration giving n% inhibition of infection, replication or growth.